# Data: the supplement of paper PMC9931576
# Human monoclonal antibodies against the spike receptor-binding domain (heavy:light variable regions). IC50 against pseudoviruses bearing the spike of naturally observed variants; lower = stronger; >10 µg/ml means not reached at the top dose. No active / inactive call. The stated detection limit is 0.0005 µg/ml; values near or below 0.001 µg/ml lie at the floor of the assay.
# Columns and labels:
# Assay in all cases: pseudovirus neutralization IC50; higher = weaker neutralization
# [1] = biological target: SARS-CoV-2 Omicron BA.1 spike pseudovirus
# Experimental: (§1)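 Single-round VSV luciferase pseudovirus mixed with antibody dilutions for 1 h and put on Huh-7 cells for about a day; IC50 from the dose curve.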
# [2] = biological target: SARS-CoV-2 Omicron BA.2 spike pseudovirus
# Experimental: as §1
# [3] = biological target: SARS-CoV-2 Omicron BA.2.75 spike pseudovirus
# Experimental: as §1
# [4] = biological target: SARS-CoV-2 Omicron BA.5 spike pseudovirus
# Experimental: as §1
# [5] = biological target: SARS-CoV-2 Omicron BQ.1.1 spike pseudovirus
# Experimental: as §1
# [6] = biological target: SARS-CoV-2 Omicron XBB spike pseudovirus
# Experimental: as §1
# [7] = biological target: SARS-CoV-2 early D614G spike pseudovirus
# Experimental: as §1
Binder,pseudovirus neutralization IC50 [1] [µg/mL],pseudovirus neutralization IC50 [2] [µg/mL],pseudovirus neutralization IC50 [3] [µg/mL],pseudovirus neutralization IC50 [4] [µg/mL],pseudovirus neutralization IC50 [5] [µg/mL],pseudovirus neutralization IC50 [6] [µg/mL],pseudovirus neutralization IC50 [7] [µg/mL]
XGv-271 (protein) chain 1: QVQLVQSGAEVKKPGSSVKVSCKASGGTFSSHPISWVRQAPGQGLEWMGRVIPIIGVTDYAQKFQGRVTFSADKSTSTAYMELSSLISEDTAVYYCARDRGYSGSGSSYYFDNWGQGSLVTVSS chain 2: QSVLAQPPSVSGAPGQRVTISCTGSNSNIGAGYDVHWYQQLPGTAPKLLIYANNNRPSGVPDRFSGSKSDTSASLAITGLLAEDEAVYYCQSYDSGLINSGVFGGGTKLTVL,> 10,> 10,> 10,> 10,> 10,> 10,> 10
XGv-287 (protein) chain 1: QVQLVQSGAEVKKPGASVKVSCKTSGYTFTTYYMHWVRQAPGQGLEWMGIINPSDGSTNYAQKFQDRVTLTKDTSTSTFYMELSSLTSEDTAKYYCARAEGSSWLGWFDPWGQGTLVTVSS chain 2: QSVLTQPPSASGTPGQRVTISCSGSNSNIGNHFVYWYQQLPGKAPKLLIYRNNQRPSGVPDRFSGSKSGTSASLAISGLRSEDEADYYCASWNDGLSASGWVFGGGTKLTV,> 10,9.1,> 10,9.49,> 10,> 10,0.102
XGv-288 (protein) chain 1: QVQLVQSGAEVKKPGASVKVSCKASGYTFTNYYIHWVRQAPGQGLEWMAIINPSGGGASYAHKFQGRVTMTRDTSTSTLYMELISLRSDDTAVYYCARAEGSSWLGWFDPWGQGTLITVSS chain 2: QSVLTQPPSASGTPGQRVTISCSGSSSNIGSNYVYWYQQLPGTAPKLLIYRNAQRPSGVPDRFSGSKSGTSASLAISGLRSEDEADYYCAAWDDGLSGSGWVFGGGTKLTV,0.488,0.0151,0.0678,0.00768,0.385,0.489,0.00923
XGv-266 (protein) chain 1: QITLKESGPTLVRPTQTLTLTCTFSGLSLSAPAEGVGWIRQPPGKALEWLALIYWEGDQRYSPSLKSRLTITKDTSKKQVVLTMTNMDPVDTATYYCARHSVATIFDFWGQGTLVTVSS chain 2: QSALTQPASVSGSPGQSITISCTGTSSDVGCCNYVSWYQHHPGKAPKLMIYEVTNRPSGISDRFSGSKSGNTASLTISGLQAEDEAAYYCSSYTTSTARVVFGGGTKLTVL,> 10,0.614,> 10,0.882,> 10,> 10,0.016
XGv-285 (protein) chain 1: QVQLVQSGAEVKKPGASMKVSCKASGYTFISYYMHWVRQAPGQELEWMGIINPSGGSTSYAQKFQGRVTMTRDTSTSTVYMELRSLRSEDTAVYYCARAEGSSWLGWFDPWGQGTLVTVSS chain 2: QSVLTQPPSASGTPGQRVTISCSGSSSNIGSNLVYWYQHLPGTAPKLLIYKNTQRPSGVPDRFSGSKSGTSASLAISGLRSDDEGDYYCAAWDDGLSGSGWVFGGGTKVT,> 10,6.06,> 10,8.14,4.41,> 10,0.023
XGv-286 (protein) chain 1: QVQLVQSGAEVKKPGASVKVSCKASGYTFSSYYIHWVRQAPGQGPEWMAIINPGDGGASYAQKFQGRVTLTRDTSTSTLYMELSSLRSEDTAVYYCARAEGSSWLGWFDPWGQGTLVTVSS chain 2: QSVLTQPPSASGTPGQRVTISCSGSSSNIGSNYVYWYQQLPGTAPKLLIYRNNQRPSGVPDRFSGSRSGTSASLAISGLRSEDEADYYCAAWDDGLSGSGWVFGGGTKLT,0.00234,0.00285,0.00309,0.00268,0.0274,> 10,0.00131
